Laboratory results from patent publication US20200399318A1, “PEPTIDE INHIBITORS OF PHOSPHOGLYCERATE MUTASE AND METHODS OF USE” (priority 2016, published 2020).

System: D. immitis iPGM
Test: PGM coupled-enzyme bioluminescent end-point assay (Kinase-Glo Plus), 1536-well
Type: biochemical, Dirofilaria immitis
Conditions: for D. immitis iPGM PIC50, M: 10 nM D. immitis iPGM, 0.4 mM 3PG, ± s.d. or s.e. of fit, NA = no appreciable inhibition
[1] = Table 8, Ce-2 analogs, NA = no appreciable activity, * estimated from incomplete concentration response curves
[2] = Table 6, pIC50 = -log IC50, NA = no appreciable inhibitory activity at highest concentration tested

Q: Which “D. immitis iPGM PIC50, M” value does the source give for `CC(=O)N[C@H](Cc1ccc(O)cc1)C(=O)N[C@@H](CC(=O)O)C(=O)N[C@@H](Cc1ccc(O)cc1)C(=O)N1CCC[C@H]1C(=O)NCC(=O)N[C@@H](CC(=O)O)C(=O)N[C@@H](Cc1ccc(O)cc1)C(=O)N[C@@H](CO)C(=O)N[C@@H](Cc1ccc(O)cc1)C(=O)N[C@@H](CC(C)C)C(=O)N[C@@H](Cc1ccc(O)cc1)C(=O)NCC(=O)N[C@H](C(=O)N[C@@H](CS)C(=O)NCC(N)=O)[C@@H](C)O` [Ce-L2] here?
A: The value was 5.18 ± 0.17 M.

Q: And the pIC50 D. immitis iPGM [1]?
A: Its pIC50 D. immitis iPGM is 5.18 ·.

Q: For `CC[C@H](C)[C@@H]1NC(=O)[C@H](CCC(=O)O)NC(=O)[C@@H]2CCCN2C(=O)[C@H](C)NC(=O)[C@H](CC(N)=O)NC(=O)[C@@H]2CCCN2C(=O)[C@H](Cc2c[nH]c3ccccc23)NC(=O)[C@H](CO)NC(=O)[C@@H](Cc2ccc(O)cc2)NC(=O)CSC[C@@H](C(=O)N[C@@H](CS)C(=O)NCC(N)=O)NC(=O)[C@H](CCCCN)NC(=O)[C@H](Cc2c[nH]c3ccccc23)NC1=O` [Bm-1], which “D. immitis iPGM PIC50, M” value is on record?
A: Its value is 5.99 ± 0.41 M.

Q: What about the “pIC50 D. immitis iPGM” value [2] of the same molecule?
A: Its value is 5.99.

Q: `CC(C)[C@@H]1NC(=O)[C@H](C)NC(=O)[C@@H](Cc2ccc(O)cc2)NC(=O)CSC[C@@H](C(=O)N[C@@H](CCCNC(=N)N)C(=O)N[C@H](C(=O)N[C@@H](CS)C(=O)NCC(N)=O)[C@@H](C)O)NC(=O)[C@H](CC(N)=O)NC(=O)[C@@H]2CCCN2C(=O)[C@H](Cc2c[nH]c3ccccc23)NC1=O` [Bm-7] was tested. Which “D. immitis iPGM PIC50, M” value did it give?
A: The value was 5.42 ± 0.46 M.

Q: And the “pIC50 D. immitis iPGM” value [2]?
A: The value was 5.42.

Q: `CC(C)C[C@@H]1NC(=O)[C@@H](Cc2ccc(O)cc2)NC(=O)CSC[C@@H](C(=O)N[C@@H](CC(N)=O)C(=O)N[C@H](C(=O)N[C@@H](CS)C(N)=O)[C@@H](C)O)NC(=O)[C@H](CC(N)=O)NC(=O)[C@@H]2CCCN2C(=O)[C@H](Cc2c[nH]c3ccccc23)NC(=O)[C@H](CCC(=O)O)NC1=O` [Bm-4a] was tested. Which “D. immitis iPGM PIC50, M” value did it give?
A: Its value is 6.28 ± 0.40 M.

Q: With `CC[C@H](C)[C@@H]1NC(=O)[C@H](CCCNC(=N)N)NC(=O)[C@H](Cc2ccccc2)NC(=O)[C@@H]2CCCN2C(=O)[C@H](CC(N)=O)NC(=O)[C@H](C)NC(=O)[C@H](CC(C)C)NC(=O)[C@H]([C@@H](C)O)NC(=O)[C@H]([C@@H](C)CC)NC(=O)[C@H](Cc2ccc(O)cc2)NC(=O)CSC[C@@H](C(=O)NCC(N)=O)NC(=O)[C@H](Cc2c[nH]cn2)NC(=O)[C@H](CC(C)C)NC1=O` [Ce-3] as the molecule, how does the “D. immitis iPGM PIC50, M” value read?
A: Its value is 5.18 ± 0.03 M.

Q: `CC(C)C[C@@H]1NC(=O)[C@@H](Cc2ccc(O)cc2)NC(=O)CSC[C@@H](C(=O)N[C@@H](CC(N)=O)C(=O)N[C@H](C(=O)N[C@@H](CS)C(=O)NCC(N)=O)[C@@H](C)O)NC(=O)[C@H](CC(N)=O)NC(=O)[C@@H]2CCCN2C(=O)[C@H](Cc2c[nH]c3ccccc23)NC(=O)[C@H](CCC(=O)O)NC1=O` [Bm-4] was tested. Which “D. immitis iPGM PIC50, M” value did it give?
A: The value was 6.21 ± 0.44 M.

Q: And the “pIC50 D. immitis iPGM” value [2]?
A: Its value is 6.21.

Q: Which results are given for `C[C@@H](O)[C@H](NC(=O)[C@H](CO)NC(=O)[C@@H]1CSCC(=O)N[C@H](Cc2ccc(O)cc2)C(=O)N2CCC[C@H]2C(=O)N[C@@H](CCC(=O)O)C(=O)N[C@@H](Cc2c[nH]c3ccccc23)C(=O)N2CCC[C@H]2C(=O)N[C@@H](CC(N)=O)C(=O)N1)C(=O)N[C@@H](CS)C(=O)NCC(N)=O` [Bm-6]?
A: D. immitis iPGM PIC50, M: 6.26 ± 0.43 M; pIC50 D. immitis iPGM [2]: 6.26

Q: `CC(C)C[C@H](NC(=O)[C@H](Cc1ccc(O)cc1)NC(=O)[C@@H]1CSCC(=O)N[C@H](Cc2ccc(O)cc2)C(=O)N[C@@H](CC(=O)O)C(=O)N[C@@H](Cc2ccc(O)cc2)C(=O)N2CCC[C@H]2C(=O)NCC(=O)N[C@@H](CC(=O)O)C(=O)N[C@@H](Cc2ccc(O)cc2)C(=O)N1)C(=O)N[C@@H](Cc1ccc(O)cc1)C(=O)NCC(=O)N[C@H](C(=O)N[C@@H](CS)C(N)=O)[C@@H](C)O` [Ce-2a] was tested. Which “D. immitis iPGM PIC50, M” value did it give?
A: The value was 7.82 ± 0.29 M.

Q: What about the “pIC50 D. immitis iPGM” value [1] of the same molecule?
A: Its value is 9.91.

Q: Which results are given for `CC(C)C[C@@H]1NC(=O)[C@@H](Cc2ccc(O)cc2)NC(=O)CSC[C@@H](C(=O)N[C@@H](CO)C(=O)N[C@H](C(=O)N[C@@H](CS)C(=O)NCC(N)=O)[C@@H](C)O)NC(=O)[C@H](CC(N)=O)NC(=O)[C@@H]2CCCN2C(=O)[C@H](Cc2c[nH]c3ccccc23)NC(=O)[C@H](CC(=O)O)NC1=O` [Bm-5]?
A: D. immitis iPGM PIC50, M: 6.10 ± 0.56 M; pIC50 D. immitis iPGM [2]: 6.10
